Results of unrelated studies side by side (data: NIAID ChemDB).

All rows: whole-cell or culture tests; agent: HIV-1; endpoint: fold resistance

Fold resistance: result on the changed form divided by that on wild type.

| SMILES | method | strain | changes | cell line | value |
|---|---|---|---|---|---|
| Cc1cc(S(N)(=O)=O)ccc1NC(=O)COc1ccc(Cl)cc1C(=O)c1cc(F)cc(F)c1 | β-galactosidase | HXB2 | RT-K103N P225H | HeLa + HELA CD4+ | ~1 |
| CC(C)=CCOc1cc(NC(=S)c2ccsc2C)ccc1Cl | cytopathic effect / XTT | UC82-R (RT-Y181C) | RT-Y181C | CEM + CEM-SS | 40 |
| Cc1cc2cn[nH]c2cc1NC(=O)COc1ccc(Cl)cc1C(=O)c1cccc(C#N)c1 | β-galactosidase | HXB2 | RT-V106I Y181C | HeLa + HELA CD4+ | ~10 |
| COc1ccccc1C(=O)Nc1ccc(Cl)c(C(=O)OC(C)C)c1 | cytopathic effect / XTT | UC781-R (RT-Y181C) | RT-Y181C | CEM + CEM-SS | 7.77 |
| CCC(=O)c1ccc(F)c([C@@H]2C[C@@H]2NC(=O)Nc2ccc(C#N)cn2)c1O | β-galactosidase / luminescence | LAI | NNRTI-resistant (RT Y181C/G190A) | TZM-bl | 1.9 |
| CCOCn1c(Sc2cc(C)cc(C)c2)c(CC)c(=O)[nH]c1=O | syncytia | IIIB | RT-Y188H | CEM | 2225 |
| O=C1Nc2ccc(Cl)cc2[C@@](/C=C/C2CC2)(C(F)(F)F)N1 | - | - | RT-V108I | - | <6 |
| Cc1cc(S(N)(=O)=O)ccc1NC(=O)COc1ccc(Cl)cc1C(=O)c1cccc(C#N)c1 | β-galactosidase | HXB2 | RT-Y188C | HeLa + HELA CD4+ | ~1 |
| Cc1ccc(C2CC2)c(-c2ccc3c(c2C)CCCO3)c1[C@H](OC(C)(C)C)C(=O)O | luminescence | NL4-3 | NRTI/NNRTI resistant NLAY351717 | MT-4 | 1 |
| CC(C)=CCOc1cc(NC(=S)c2ccoc2C)ccc1Cl | cytopathic effect / XTT | Oxathiin carboxanilide-resistant RT L100I | RT-L100I | CEM + CEM-SS | 50 |
| CCOCn1c(Cc2ccccc2)c(CC)c(=O)[nH]c1=O | syncytia | IIIB (TIBO 82150) (RT-L100I) | RT-L100I | CEM | 5 |
| C/C=C/CSc1cc(NC(=S)c2ccsc2C)ccc1Cl | p24 | NL4-3 | RT-A98G | CEM + CEM-SS | 9 |
| Cc1cc(C)cc(C(=O)c2cc(Cl)ccc2OCC(=O)Nc2ccc(S(N)(=O)=O)cc2C)c1 | β-galactosidase | HXB2 | RT-K103N V108I | HeLa + HELA CD4+ | ~1 |
| CCOCn1c(Cc2ccccc2)c(C(C)C)c(=O)[nH]c1=O | syncytia | IIIB | Nevirapine resistant (RT Y181C) | CEM | 115 |
| O=C1Nc2ccc(F)c(F)c2[C@@](C#CC2CC2)(C(F)(F)F)N1 | - | - | RT-L100I | - | 7.78 |
| CC(C)c1c(Sc2ccccc2)n(COCCO)c(=S)[nH]c1=O | syncytia | IIIB | RT-Y181I | CEM | >50 |
| Cc1ccc(C2CC2)c(-c2cc(F)c3c(c2C)CCCO3)c1[C@H](OC1CC1)C(=O)O | p24 / luminescence | NL4-3 | H171Q | MT-4 | 1 |

Blank or dashed fields: not listed here. Rows are shuffled and stem from different studies.